Earlier results, collected in patent US20160367620A1, “GLUTATHIONE” (priority 2015, published 2016).

Tested on: human immunodeficiency virus (HIV) expression
Details: U1 cells; cited from earlier work

**Q.** For glutathione ester [GSE], which “cytotoxic or cytostatic effects” value is on record?
**A.** absence of cytotoxic or cytostatic effects
